{"sequences": {"note": "The chains behind the UniProt entries cited, without tags or fusion partners. Residues count along the entry.", "UniProt P00809, 28-306 limits assumed": "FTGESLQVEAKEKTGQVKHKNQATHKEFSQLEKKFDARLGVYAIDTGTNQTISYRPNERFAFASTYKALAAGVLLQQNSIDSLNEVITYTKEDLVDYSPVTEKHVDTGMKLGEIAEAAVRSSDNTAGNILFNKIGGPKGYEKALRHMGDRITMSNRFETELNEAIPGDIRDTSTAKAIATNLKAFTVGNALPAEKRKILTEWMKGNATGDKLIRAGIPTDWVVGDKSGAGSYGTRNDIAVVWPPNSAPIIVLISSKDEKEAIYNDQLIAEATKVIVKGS"}, "source": "patent US4180506A", "about": "“6β-Bromo penicillanic acid” (priority 1978, dated 1979)", "key": {"[1]": {"tested_on": "various gram positive and gram negative bacteria", "settings": "literature: Clayton, J. Chem. Soc. C, 2123-2127 (1969); cited from earlier work"}, "[2]": {"tested_on": "two penicillinase-producing animal-pathogenic strains of Staphylococcus aureus", "assay": "Disc agar diffusion tests, summary for two penicillinase-producing strains", "assay_type": "cell-based, Staphylococcus aureus MB-3648 and MB-3649"}, "β-lactamases": {"tested_on": "β-lactamases", "assay": "β-Lactamase inhibitory activity (general statement)", "assay_type": "biochemical"}, "[3]": {"tested_on": "various gram positive and gram negative bacteria", "assay": "Antibacterial activity (general statement)"}, "B. cereus β-lactamase I": {"target": "B. cereus β-lactamase I (Bacillus cereus, UniProt P00809)", "assay": "Correlation between β-lactamase inhibition and 6β-bromopenicillanic acid content in mixtures", "settings": "assuming a 1:1 enzyme inhibitor interaction"}, "[4]": {"settings": "subinhibitory concentration (1/4 MZC), extrapolated on standard/regression curve"}, "[5]": {"settings": "listed as 6β-bromo penicillanic acid"}}, "note": "Like-named read-outs stand apart in the source and are kept apart here."}
{"smiles": "CC1(C)S[C@H]2N(C(=O)C2(Br)Br)[C@H]1C(=O)O", "values": [{"measurement": "Antibacterial activity", "setting": "[1]", "value": "did not show any significant antibacterial activity"}]}
{"smiles": "CC1(C)S[C@@H]2C(Br)C(=O)N2[C@H]1C(=O)O", "note": "(stereo partly drawn)", "values": [{"measurement": "Potentiation of Pen G", "setting": "[2]; [4]", "value": 64, "unit": "fold"}, {"measurement": "Potentiation of ampicillin", "setting": "[2]; [4]", "value": 32, "unit": "fold"}, {"measurement": "1/4 of minimum zone-inducing concentration (1/4MZC)", "setting": "[2]; substance alone vs either MB3648 or MB3649", "value": 32, "unit": "µg/mL"}]}
{"smiles": "CC1(C)SC2C(Br)C(=O)N2C1C(=O)O", "note": "(stereo not drawn)", "values": [{"measurement": "β-lactamase inhibitory activity", "setting": "β-lactamases", "value": "the inhibitor is the 6β-bromopenicillanic acid"}, {"measurement": "β-lactamase inhibitory activity", "setting": "β-lactamases; [5]", "value": "possesses both antibacterial and β-lactamase inhibitory activities"}, {"measurement": "Antibacterial activity", "setting": "[3]; listed as 6-β-bromo penicillanic acid", "value": "at levels similar to that of clavulanic acid"}, {"measurement": "Antibacterial activity", "setting": "[3]; [5]", "value": "possesses both antibacterial and β-lactamase inhibitory activities"}, {"measurement": "% Inhibition of B. cereus β-lactamase I", "setting": "B. cereus β-lactamase I", "value": 0, "unit": "%"}]}
